Results of unrelated studies side by side (data: NIAID ChemDB).

Common to all: whole-cell or culture tests; agent: HIV-1; cell line: MT-2; read-out: EC50

Two numbers with a dash give a range or band. Lines come from different laboratories, so protocols vary. An empty or dashed field is not shown. ECn: concentration that inhibits the pathogen or its effect by n%.

SMILES	changes	read by	strain	setting	value
CCN(c1nc(F)ccc1NC(C)(C)C)C1CCN(C(=O)c2cc3cc(NC(=O)N4CCN(C)CC4)ccc3[nH]2)CC1	I401T R409K D437N	p24 / ELISA	IIIB	-	0.0261 µM
O=c1[nH]cnc2c1ncn2[C@H]1CC[C@@H](CO)O1	-	ATP	IIIB	-	3.1 µM
C[C@H](Cn1cnc2c(N)ncnc21)OCP(=O)(O)O	RT-K65R M184V	cytopathic effect / XTT	Site-directed mutant	-	7.56 µM
CC(C)(C)NC(=O)[C@@H]1C[C@@H]2CCCC[C@@H]2CN1C[C@@H](O)[C@H](Cc1ccccc1)NC(=O)[C@H](CC(N)=O)NC(=O)c1ccc2ccccc2n1	-	MTT	LAI	-	0.021 µM
O=C(/C=C/c1ccc(O)c(O)c1)O[C@@H]1CC(O)(C(=O)O)C[C@@H](OC(=O)/C=C/c2ccc(O)c(O)c2)C1O	-	cytopathic effect / neutral red	LAI	-	1 µg/mL
CN(C)c1nc(CO[C@@H]2[C@H](O)[C@@H](O)[C@@H](OCc3csc(N(C)C)n3)[C@@H](Cc3ccccc3)S(=O)(=O)[C@@H]2Cc2ccccc2)cs1	-	cytopathic effect / XTT	IIIB	-	2–10 µM
CCOCn1c(Sc2ccccc2)c(CC)c(=O)[nH]c1=O	-	cytopathic effect / MTT	IIIB	-	0.1 µM
CC(C)OC(=O)OCOP(=O)(CO[C@H](C)Cn1cnc2c(N)ncnc21)OCOC(=O)OC(C)C	RT-P119S V179D L214F	p24	P18 FDDA-resistant RT P119S V179D L214F	-	0.007 µM
Nc1ccn([C@H]2CC[C@@H](CO)O2)c(=O)n1	-	cytopathic effect / XTT	IIIB	-	1.4 µM
Nc1ncnc2c1ncn2[C@@H]1O[C@H](OCP(=O)(O)O)C=C1F	-	ATP	IIIB	-	10.6 µM
Nc1ccc(CN2C(=O)N(Cc3ccc(N)c(F)c3)[C@H](Cc3ccccc3)[C@H](O)[C@H]2CCc2ccccc2)cc1F	-	cytopathic effect / MTT	RF	-	<0.539 µM
O=c1[nH]cnc2c1ncn2[C@H]1CC[C@@H](CO)O1	-	cytopathic effect / XTT	IIIB	-	6.5 µM
Nc1ccc(C[C@@H]2[C@H](O)[C@@H](O)[C@@H](Cc3ccc(N)cc3)N(Cc3cccc(C(=O)Nc4nc5ccccc5[nH]4)c3)C(=O)N2Cc2cccc(C(=O)Nc3nc4ccccc4[nH]3)c2)cc1	-	-	RF	3 d	<0.01 µM
CC(C)=CCN1Cc2cccc3[nH]c(=S)n(c23)C[C@@H]1C	-	RT activity	PDBC	-	0.25 µM
O=C1N(Cc2cccc(Br)c2)[C@H](Cc2ccccc2)[C@H](O)[C@@H](O)[C@@H](Cc2ccccc2)N1Cc1cccc(Br)c1	-	hybridisation	RF	-	<1.2 µM
CCCc1cc(=O)oc2c3c(c4c(c12)OC(C)(C)C=C4)O[C@@H](C)[C@H](C)[C@H]3O	-	cytopathic effect / MTT	A-17 (TIBO-RS)	-	>0.2 µM
Cc1ccc(CN2C(=O)N(Cc3ccc(C)cc3)[C@H](Cc3ccccc3)[C@H](O)[C@@H](O)[C@H]2Cc2ccccc2)cc1	-	hybridisation	RF	-	<4.3 µM
CC(C)(C)NC(=O)[C@@H]1C[C@@H]2CCCC[C@@H]2CN1C[C@@H](O)[C@H](Cc1ccccc1)NC(=O)[C@H](CC(N)=O)NC(=O)c1ccc2ccccc2n1	-	-	RF	-	0.0091 µM
CC(C)CN(C[C@@H](O)[C@H](Cc1ccccc1)NC(=O)O[C@H]1CO[C@H]2OCC(F)(F)[C@H]21)S(=O)(=O)c1ccc(N)cc1	-	MTT	LAI	-	0.003 µM
CCOP(=O)(COc1ccc(C[C@H](NC(=O)O[C@H]2CO[C@H]3OCC[C@H]32)[C@H](O)CN(CC(C)C)S(=O)(=O)c2ccc(OC)cc2)cc1)OCC	M200I	p24 / ELISA	IIIB	-	0.008 µM
O=S1(=O)[C@H](Cc2ccccc2)[C@H](OCc2ccccc2)[C@H](O)[C@@H](O)[C@H](OCc2ccccc2)[C@H]1Cc1ccccc1	-	cytopathic effect / XTT	IIIB	-	<2 µM
COC(=O)C(=O)OC1(C(=O)O)C[C@@H](OC(=O)/C=C/c2ccc(O)c(O)c2)C(O)[C@H](OC(=O)/C=C/c2ccc(O)c(O)c2)C1	-	cytopathic effect / neutral red	LAI	-	4 µg/mL
CC(C)OC(=O)[C@H](C)NP(=O)(CO[C@@H]1C=C(F)[C@H](n2cnc3c(N)ncnc32)O1)Oc1ccccc1	-	ATP	IIIB	-	0.81 µM
Cc1cn([C@H]2C=C[C@@H](CO)O2)c(=O)[nH]c1=O	K103N/M184V	recombinant virus assay	Clinical isolate	-	0.336 µM
CCCc1cc(=O)oc2c3c(c4c(c12)OC(C)(C)C=C4)O[C@@H](C)[C@H](C)[C@H]3O	-	cytopathic effect / MTT	G910-6	-	>1 µg/mL
O=S1[C@H](Cc2ccccc2)[C@H](OCc2ccccc2)[C@H](O)[C@@H](O)[C@@H](OCc2ccccc2)[C@@H]1Cc1ccccc1	-	cytopathic effect / XTT	IIIB	-	2–10 µM
Cc1cn([C@H]2C[C@H](N=[N+]=[N-])[C@@H](CO)O2)c(=O)[nH]c1=O	-	ATP	IIIB	-	0.14 µM
Nc1nc(=O)n([C@@H]2CS[C@H](CO)O2)cc1F	K65R M184V	recombinant virus assay	Clinical isolate	-	>13.3 µM
O=[N+]([O-])c1ccc(CO[C@@H]2[C@H](O)[C@@H](O)[C@@H](OCc3ccc([N+](=O)[O-])cc3)[C@@H](Cc3ccccc3)S(=O)(=O)[C@@H]2Cc2ccccc2)cc1	-	cytopathic effect / XTT	IIIB	-	2–10 µM
Cc1cn([C@H]2C=C[C@@H](CO)O2)c(=O)[nH]c1=O	RT-Q151M V75I	cytopathic effect / MTT	-	-	18 µM
O=c1[nH]cnc2c1ncn2[C@H]1CC[C@@H](CO)O1	-	cytopathic effect / XTT	HXB2D	-	0.004 µM
C[C@H]1CN2CCC[C@H]3CCCCC[C@@H]4C(=O)[C@@H](C)CN5CCC[C@@H](CCCCC[C@H](C1=O)[C@@H]32)[C@H]45	-	p24	MN	-	41.3 µM
O=S1C[C@H](OCc2ccccc2)[C@H](O)[C@@H](O)[C@@H](OCc2ccccc2)[C@H]1Cc1ccccc1	-	cytopathic effect / XTT	IIIB	-	10–50 µM
Cc1ccc(S(=O)(=O)N(CC(C)C)C[C@@H](O)[C@H](Cc2ccccc2)NC(=O)O[C@H]2CO[C@H]3OCC[C@H]32)cc1	D437N	p24 / ELISA	IIIB	-	0.008 µM
O=c1[nH]cnc2c1ncn2[C@H]1CC[C@@H](CO)O1	RT-K65R	XTT	HXB2D (RT-K65R)	-	20 ± 1.1 µM
CCCCCC[C@@H]1[C@H](O)[C@@H](O)[C@@H](Cc2ccccc2)N(Cc2cccc(C(=O)Nc3nc4ccccc4[nH]3)c2)C(=O)N1Cc1cccc(C(=O)Nc2nc3ccccc3[nH]2)c1	-	-	RF	3 d	<0.009 µM
Nc1nc2c(ncn2[C@H]2CO[C@@H](CO)O2)c(=O)[nH]1	-	cytopathic effect / XTT	HXB2D	-	0.0019 µM
Cc1cccc(CN2C(=O)N(Cc3cccc(C)c3)[C@H](Cc3ccccc3)[C@H](O)[C@@H](O)[C@H]2Cc2ccccc2)c1	-	hybridisation	RF	-	<2.4 µM
Nc1nc2c(ncn2[C@H]2C=C[C@@H](CO)C2)c(=O)[nH]1	-	cytopathic effect / XTT / RT activity	MB48 ddI-resistant	5 d	4.1 µM
NC(=O)c1ncn([C@@H]2O[C@H](CO)[C@@H](O)[C@H]2O)n1	-	cytopathic effect / XTT	LAI	-	>100 µM
Nc1nc(NC2CC2)c2ncn([C@H]3C=C[C@@H](CO)C3)c2n1	RT-Q151M V75I	cytopathic effect / MTT	-	-	>20 µM
N#Cc1cccc(CN2C(=O)N(Cc3cccc(C#N)c3)[C@H](Cc3ccccc3)[C@H](O)[C@H]2CCc2ccccc2)c1	-	cytopathic effect / MTT	RF	-	<1.6 µM
O=C(O)P(=O)(O)O	-	-	HXB2	-	17.6 µM
CC(C)C[C@@H]1[C@H](O)[C@@H](O)[C@@H](CC(C)C)N(Cc2cccc(C(=O)Nc3nc4ccccc4[nH]3)c2)C(=O)N1Cc1cccc(C(=O)Nc2nc3ccccc3[nH]2)c1	PR-I84V V82F	-	RF	3 d	<0.012 µM
O=C1N(Cc2cccnc2)[C@H](Cc2ccccc2)[C@H](O)[C@@H](O)[C@@H](Cc2ccccc2)N1Cc1cccnc1	-	hybridisation	RF	-	<8.8 µM
Nc1ncnc2c1ncn2[C@H]1C=C[C@@H](OCP(=O)(O)O)C1	-	ATP	IIIB	-	52 µM
CC(C)(C)NC(=O)[C@@H]1CN(Cc2cccnc2)CCN1C[C@@H](O)C[C@@H](Cc1ccccc1)C(=O)N[C@H]1c2ccccc2C[C@H]1O	-	cytopathic effect / XTT	IIIB	-	0.004 µM
O=C1N[C@H](CCc2ccccc2)[C@@H](O)[C@@H](Cc2ccccc2)N1Cc1ccc2[nH]ncc2c1	-	cytopathic effect / MTT	RF	-	<0.59 µM
COc1ccc(C[C@@H]2[C@H](O)[C@@H](O)[C@@H](Cc3ccc(OC)cc3)N(Cc3cccc(C(=O)Nc4nc5ccccc5[nH]4)c3)C(=O)N2Cc2cccc(C(=O)Nc3nc4ccccc4[nH]3)c2)cc1	-	-	RF	3 d	<0.019 µM
O=c1[nH]cnc2c1ncn2[C@H]1CC[C@@H](CO)O1	RT-S156A	RT activity	HX(RT-S156A)	-	1.8 µM
CCOCn1c([Se]c2ccccc2)c(CC)c(=O)[nH]c1=O	-	cytopathic effect / MTT	IIIB	-	0.1 µM
N/C(=N/O)c1cc(CN2C(=O)N[C@H](CCc3ccccc3)[C@@H](O)[C@H]2Cc2ccccc2)ccc1F	-	cytopathic effect / MTT	RF	-	<3.78 µM
O=C1N(Cc2ccccc2Cl)[C@H](Cc2ccccc2)[C@H](O)[C@@H](O)[C@@H](Cc2ccccc2)N1Cc1ccccc1Cl	-	hybridisation	RF	-	<11.3 µM
Nc1ccn([C@H]2CC[C@@H](CO)O2)c(=O)n1	-	cytopathic effect / MTT	G910-6 AZT-resistant	-	~0.2 µM
Nc1nc2c(ncn2[C@H]2CC[C@@H](CO)O2)c(=O)[nH]1	-	cytopathic effect / XTT / RT activity	MB48 ddI-resistant	5 d	6.5 µM
COc1ccc(S(=O)(=O)N(CC(C)C)C[C@@H](O)[C@H](Cc2ccccc2)NC(=O)O[C@H]2CO[C@H]3OCC(F)(F)[C@H]32)cc1	-	MTT	LAI	-	0.0008 µM
Nc1ccc(CO[C@@H]2[C@H](O)[C@@H](O)[C@@H](OCc3ccc(N)c(C(F)(F)F)c3)[C@@H](Cc3ccccc3)S(=O)(=O)[C@@H]2Cc2ccccc2)cc1C(F)(F)F	-	cytopathic effect / XTT	IIIB	-	<2 µM
Cc1cn([C@H]2C[C@H](N=[N+]=[N-])[C@@H](CO)O2)c(=O)[nH]c1=O	-	cytopathic effect / XTT	HXB2D	-	0.00018 µM
CCOCn1c([Se]c2ccccc2)c(C)c(=O)[nH]c1=O	-	cytopathic effect / MTT	IIIB	-	3 µM
Nc1nc2c(ncn2[C@H]2CO[C@@H](CO)O2)c(=O)[nH]1	-	cytopathic effect / XTT	LAI	-	2 µM
Nc1cccc(CO[C@@H]2[C@H](O)[C@@H](O)[C@@H](OCc3cccc(N)c3)[C@@H](Cc3ccccc3)S(=O)(=O)[C@@H]2Cc2ccccc2)c1	-	cytopathic effect / XTT	IIIB	-	<2 µM
C[C@@H]1CN2CCC[C@@H]3CCCCC[C@@H]4C(=O)[C@@H](C)CN5CCC[C@@H](CCCCC[C@@H](C1=O)[C@H]32)[C@H]45	-	syncytia	MN	-	36.1 µM
Cc1cn([C@H]2C[C@H](N=[N+]=[N-])[C@@H](CO)O2)c(=O)[nH]c1=O	RT-K65R H221Y	cytopathic effect / XTT	Site-directed mutant	-	0.182 µM
Nc1nc(N)c2ncn([C@H]3CO[C@@H](CO)O3)c2n1	RT-F116Y Q151M T215Y	cytopathic effect / XTT	-	-	160 µM
CC(C)C[C@@H]1[C@H](O)[C@@H](O)[C@@H](Cc2ccccc2)N(Cc2cccc(C(=O)Nc3nc4ccccc4[nH]3)c2)C(=O)N1Cc1cccc(C(=O)Nc2nc3ccccc3[nH]2)c1	PR-I84V V82F	-	RF	3 d	<0.082 µM

The last 4 rows once more:

SMILES | changes | read by | strain | setting | value
C[C@@H]1CN2CCC[C@@H]3CCCCC[C@@H]4C(=O)[C@@H](C)CN5CCC[C@@H](CCCCC[C@@H](C1=O)[C@H]32)[C@H]45 | - | syncytia | MN | - | 36.1 µM
Cc1cn([C@H]2C[C@H](N=[N+]=[N-])[C@@H](CO)O2)c(=O)[nH]c1=O | RT-K65R H221Y | cytopathic effect / XTT | Site-directed mutant | - | 0.182 µM
Nc1nc(N)c2ncn([C@H]3CO[C@@H](CO)O3)c2n1 | RT-F116Y Q151M T215Y | cytopathic effect / XTT | - | - | 160 µM
CC(C)C[C@@H]1[C@H](O)[C@@H](O)[C@@H](Cc2ccccc2)N(Cc2cccc(C(=O)Nc3nc4ccccc4[nH]3)c2)C(=O)N1Cc1cccc(C(=O)Nc2nc3ccccc3[nH]2)c1 | PR-I84V V82F | - | RF | 3 d | <0.082 µM